The series has as its system Human erythrocytes. The series can be described thus: hemotoxicity determination (hemolytic activity). It is filed as cell-based. Conditions: for WS EH50/IC50 (selectivity coefficient): EH50 divided by antifungal IC50; for WE WS(z)/WS(AmB) (effectivity factor): selectivity coefficient of derivative relative to native antibiotic. As for the experimental part: The hemotoxicity determination was carried out by the serial dilutions method, according to the procedure described earlier (Slisz, M., et al., E., J Antibiot 57: 669-678 (2004). Human erythrocytes were suspended in the solution of saline to obtain a cell density of suspension 2×10^7/ml. Suitable amounts of diluted solutions of compounds were added to the cell suspension in tubes and were incubated at 37° C. for 30 minutes and then centrifuged (1700×g, 10 min, 4° C.). The concentration of hemoglobin in supernatant after centrifugation of erythrocytes suspension were determined by measuring the absorbance at wavelength λ=540 nm (A540). The maximum level of hemolysis was obtained after incubation of cells suspension in the presence of 0.1% Tritone X-100 (control sample). […] From these graphs, the EH50 values were read which are the interpolated concentrations of compound, for which the A540 value is exactly 50% of the A540 value measured for the control sample.

With `Cc1cc(C)c(N2C(=O)CC(N[C@@H]3[C@H](O)[C@H](O[C@H]4/C=C/C=C/C=C/C=C/C=C/C=C/C=C/[C@H](C)[C@@H](O)[C@@H](C)[C@H](C)OC(=O)C[C@H](O)C[C@H](O)CC[C@@H](O)[C@H](O)C[C@H](O)C[C@]5(O)C[C@H](O)[C@@H](C(=O)O)[C@H](C4)O5)O[C@H](C)[C@H]3O)C2=O)c(C)c1` (stereo partly shown) [Compound A1, N—[N-(2,4,6-trimethylphenyl)succinimidyl]amphotericin B], the “WS EH50/IC50 (selectivity coefficient)” value is greater than 102.04 and the “WE WS(z)/WS(AmB) (effectivity factor)” value is greater than 5.74.
Taken in the same sequence, the figures for `C[C@@H]1[C@H](O)[C@@H](C)/C=C/C=C/C=C/C=C/C=C/C=C/C=C/[C@H](O[C@@H]2O[C@H](C)[C@@H](O)[C@H](NC3CC(=O)N(Cc4ccccc4)C3=O)[C@@H]2O)C[C@@H]2O[C@](O)(C[C@@H](O)C[C@@H](O)[C@H](O)CC[C@@H](O)C[C@@H](O)CC(=O)O[C@H]1C)C[C@H](O)[C@H]2C(=O)O` (stereo partly shown) [Compound A2, N—(N-benzylsuccinimidyl)amphotericin B] were greater than 45.04 and greater than 2.54.
Taken in the same sequence, the figures for `C[C@@H]1[C@H](O)[C@@H](C)/C=C/C=C/C=C/C=C/C=C/C=C/C=C/[C@H](O[C@@H]2O[C@H](C)[C@@H](O)[C@H](NC3CC(=O)N(c4ccc(Br)cc4)C3=O)[C@@H]2O)C[C@@H]2O[C@](O)(C[C@@H](O)C[C@@H](O)[C@H](O)CC[C@@H](O)C[C@@H](O)CC(=O)O[C@H]1C)C[C@H](O)[C@H]2C(=O)O` (stereo partly shown) [Compound A3, N—[N-(4-bromophenyl)succinimidyl]amphotericin B] were greater than 35.09 and greater than 1.97.
Taken in the same sequence, the figures for `C[C@@H]1[C@H](O)[C@@H](C)/C=C/C=C/C=C/C=C/C=C/C=C/C=C/[C@H](O[C@@H]2O[C@H](C)[C@@H](O)[C@H](NC3CC(=O)N(c4ccccc4C(C)(C)C)C3=O)[C@@H]2O)C[C@@H]2O[C@](O)(C[C@@H](O)C[C@@H](O)[C@H](O)CC[C@@H](O)C[C@@H](O)CC(=O)O[C@H]1C)C[C@H](O)[C@H]2C(=O)O` (stereo partly shown) [Compound A4, N—[N-(2-tert-butylophenyl)succinimidyl]amphotericin B] were greater than 32.15 and greater than 1.81.
Turning to `C[C@@H]1[C@H](O)[C@@H](C)/C=C/C=C/C=C/C=C/C=C/C=C/C=C/[C@H](O[C@@H]2O[C@H](C)[C@@H](O)[C@H](NC3CC(=O)N(c4ccc([N+](=O)[O-])cc4)C3=O)[C@@H]2O)C[C@@H]2O[C@](O)(C[C@@H](O)C[C@@H](O)[C@H](O)CC[C@@H](O)C[C@@H](O)CC(=O)O[C@H]1C)C[C@H](O)[C@H]2C(=O)O` (stereo partly shown) [Compound A5, N—[N-(4-nitrophenyl)succinimidyl]amphotericin B], the “WS EH50/IC50 (selectivity coefficient)” value is greater than 51.55 and the “WE WS(z)/WS(AmB) (effectivity factor)” value is on record as greater than 2.90.
Taken in the same sequence, the figures for `C[C@@H]1[C@H](O)[C@@H](C)/C=C/C=C/C=C/C=C/C=C/C=C/C=C/[C@H](O[C@@H]2O[C@H](C)[C@@H](O)[C@H](NC3CC(=O)N(CC(C)(C)CN(C)C)C3=O)[C@@H]2O)C[C@@H]2O[C@](O)(C[C@@H](O)C[C@@H](O)[C@H](O)CC[C@@H](O)C[C@@H](O)CC(=O)O[C@H]1C)C[C@H](O)[C@H]2C(=O)O` (stereo partly shown) [Compound A7, N-{N-[3-(N,N-dimethylamino)-2,2-dimethylpropyl]succinimidyl}amphotericin B] were greater than 142.86 and greater than 8.04.
Taken in the same sequence, the figures for `C[C@@H]1[C@H](O)[C@@H](C)/C=C/C=C/C=C/C=C/C=C/C=C/C=C/[C@H](O[C@@H]2O[C@H](C)[C@@H](O)[C@H](NC3CC(=O)N(CCO)C3=O)[C@@H]2O)C[C@@H]2O[C@](O)(C[C@@H](O)C[C@@H](O)[C@H](O)CC[C@@H](O)C[C@@H](O)CC(=O)O[C@H]1C)C[C@H](O)[C@H]2C(=O)O` (stereo partly shown) [Compound A8, N—[N-(2-hydroxyethyl)succinimidyl]amphotericin B] were greater than 73.53 and greater than 4.14.
The like results for `C[C@@H]1[C@H](O)[C@@H](C)/C=C/C=C/C=C/C=C/C=C/C=C/C=C/[C@H](O[C@@H]2O[C@H](C)[C@@H](O)[C@H](NCc3ccc(C(C)(C)C)cc3)[C@@H]2O)C[C@@H]2O[C@](O)(C[C@@H](O)C[C@@H](O)[C@H](O)CC[C@@H](O)C[C@@H](O)CC(=O)O[C@H]1C)C[C@H](O)[C@H]2C(=O)O` [Compound A21, N-(4-tert-butylbenzyl)amphotericin B] were, in that order, greater than 63.29 and greater than 3.56.
Regarding `C[C@@H]1[C@H](O)[C@@H](C)/C=C/C=C/C=C/C=C/C=C/C=C/C=C/[C@H](O[C@@H]2O[C@H](C)[C@@H](O)[C@H](NC(=S)Nc3ccccc3)[C@@H]2O)C[C@@H]2O[C@](O)(C[C@@H](O)C[C@@H](O)[C@H](O)CC[C@@H](O)C[C@@H](O)CC(=O)O[C@H]1C)C[C@H](O)[C@H]2C(=O)O` [Compound A23, N-[(3-phenyl)-thioureidyl]amphotericin B], the “WS EH50/IC50 (selectivity coefficient)” value is listed as greater than 39.37 and the “WE WS(z)/WS(AmB) (effectivity factor)” value was greater than 2.22.
The like results for `C[C@@H]1[C@H](O)[C@@H](C)/C=C/C=C/C=C/C=C/C=C/C=C/C=C/[C@H](O[C@@H]2O[C@H](C)[C@@H](O)[C@H](NC(=S)NCCN3CCOCC3)[C@@H]2O)C[C@@H]2O[C@](O)(C[C@@H](O)C[C@@H](O)[C@H](O)CC[C@@H](O)C[C@@H](O)CC(=O)O[C@H]1C)C[C@H](O)[C@H]2C(=O)O` [Compound A24, N-{[3-(2-morpholin-1-yl)ethyl]thioureidyl}amphotericin B] were, in that order, greater than 88.49 and greater than 4.98.
Taken in the same sequence, the figures for `CCN(CC)CCNC(=S)N[C@@H]1[C@H](O)[C@H](O[C@H]2/C=C/C=C/C=C/C=C/C=C/C=C/C=C/[C@H](C)[C@@H](O)[C@@H](C)[C@H](C)OC(=O)C[C@H](O)C[C@H](O)CC[C@@H](O)[C@H](O)C[C@H](O)C[C@]3(O)C[C@H](O)[C@@H](C(=O)O)[C@H](C2)O3)O[C@H](C)[C@H]1O` [Compound A25, N-{3-[2-(N,N-diethylamino)ethyl]thioureidyl}amphotericin B] were greater than 117.65 and greater than 6.62.
Taken in the same sequence, the figures for `C[C@@H]1[C@H](O)[C@@H](C)/C=C/C=C/C=C/C=C/C=C/C=C/C=C/[C@H](O[C@@H]2O[C@H](C)[C@@H](O)[C@H](NC(=S)Nc3cccnc3)[C@@H]2O)C[C@@H]2O[C@](O)(C[C@@H](O)C[C@@H](O)[C@H](O)CC[C@@H](O)C[C@@H](O)CC(=O)O[C@H]1C)C[C@H](O)[C@H]2C(=O)O` [Compound A26, N-[3-(pyridin-3-yl)thioureidyl]amphotericin B] were greater than 39.21 and greater than 2.21.
For the molecule `C[C@@H]1[C@H](O)[C@@H](C)/C=C/C=C/C=C/C=C/C=C/C=C/C=C/[C@H](O[C@@H]2O[C@H](C)[C@@H](O)[C@H](NC(=S)NCCN3CCCC3)[C@@H]2O)C[C@@H]2O[C@](O)(C[C@@H](O)C[C@@H](O)[C@H](O)CC[C@@H](O)C[C@@H](O)CC(=O)O[C@H]1C)C[C@H](O)[C@H]2C(=O)O` [Compound A27, N-{[3-(2-pyrrolidin-1-yl)ethyl]thioureidyl}amphotericin B], the “WS EH50/IC50 (selectivity coefficient)” value was greater than 133.33 and the “WE WS(z)/WS(AmB) (effectivity factor)” value is reported as greater than 7.51.
The like results for `C[C@@H]1[C@H](O)[C@@H](C)/C=C/C=C/C=C/C=C/C=C/C=C/C=C/[C@H](O[C@@H]2O[C@H](C)[C@@H](O)[C@H](NC(=S)NCCN(C)C)[C@@H]2O)C[C@@H]2O[C@](O)(C[C@@H](O)C[C@@H](O)[C@H](O)CC[C@@H](O)C[C@@H](O)CC(=O)O[C@H]1C)C[C@H](O)[C@H]2C(=O)O` [Compound A28, N-{3-[2-(N,N-dimethylamino)ethyl]thioureidyl}amphotericin B] were, in that order, 163.46 and 9.20.
The like results for `C[C@@H]1[C@H](O)[C@@H](C)/C=C/C=C/C=C/C=C/C=C/C=C/C=C/[C@H](O[C@@H]2O[C@H](C)[C@@H](O)[C@H](NC(=S)NCc3ccncc3)[C@@H]2O)C[C@@H]2O[C@](O)(C[C@@H](O)C[C@@H](O)[C@H](O)CC[C@@H](O)C[C@@H](O)CC(=O)O[C@H]1C)C[C@H](O)[C@H]2C(=O)O` [Compound A29, N-{[3-(pyridin-4-yl)methyl]thioureidyl}amphotericin B] were, in that order, greater than 39.06 and greater than 2.20.
In the case of `C[C@@H]1[C@H](O)[C@@H](C)/C=C/C=C/C=C/C=C/C=C/C=C/C=C/[C@H](O[C@@H]2O[C@H](C)[C@@H](O)[C@H](NC(=O)[C@@H](N)Cc3ccc(I)cc3)[C@@H]2O)C[C@@H]2O[C@](O)(C[C@@H](O)C[C@@H](O)[C@H](O)CC[C@@H](O)C[C@@H](O)CC(=O)O[C@H]1C)C[C@H](O)[C@H]2C(=O)O` [Compound A31, N-L-p-iodophenylalanylamphotericin B], the “WS EH50/IC50 (selectivity coefficient)” value is greater than 39.68 and the “WE WS(z)/WS(AmB) (effectivity factor)” value is reported as greater than 2.23.
As for `C[C@@H]1[C@H](O)[C@@H](C)/C=C/C=C/C=C/C=C/C=C/C=C/C=C/[C@H](O[C@@H]2O[C@H](C)[C@@H](O)[C@H](NC(=O)[C@H](N)CC(=O)OC(C)(C)C)[C@@H]2O)C[C@@H]2O[C@](O)(C[C@@H](O)C[C@@H](O)[C@H](O)CC[C@@H](O)C[C@@H](O)CC(=O)O[C@H]1C)C[C@H](O)[C@H]2C(=O)O` [Compound A35, N-D-(O^β-tert-butyl)asparagylamphotericin B], the “WS EH50/IC50 (selectivity coefficient)” value is greater than 71.42 and the “WE WS(z)/WS(AmB) (effectivity factor)” value was greater than 4.02.

These data come from patent US9745335B2 (Blirt S.A., priority 2012, dated 2017).
